Measured values from several laboratories, pooled; numbers as filed in NIAID ChemDB.

Rows are shuffled and stem from different studies.

structure,mutations,method,cell line,endpoint,dose,strain or isolate,test,target,agent,result
NC(=S)N/N=C1/C(=O)N(c2ccc(Cl)cc2)C(=O)C1C(=O)Nc1ccc(Cl)cc1,,BACTEC,,MIC,,H37Rv,culture,,Mycobacterium tuberculosis,≥12.8 µg/mL
C[C@H](NCCNCC(c1ccccc1)c1ccccc1)[C@H](O)c1ccc(O)c(O)c1,,,,MIC,,,culture,,Mycobacterium tuberculosis,3.13 µM
Fc1ccc(-c2cncc(N3CCN(c4ccccn4)CC3)n2)cc1,,,,IC50,,,target,UL97 kinase,Cytomegalovirus,<10 µM
COc1cc(C[C@H](C)[C@H](C)Cc2ccc(O)c(O)c2)ccc1O,,broth dilution,,MIC100,,CCC 130-2000,culture,,Candida albicans,125 µg/mL
O=c1ccc2nc3ccccc3sc-2c1,,BACTEC,,inhibition,12.5 µg/mL,H37Rv,culture,,Mycobacterium tuberculosis,98%
O=C(Nc1nnc(NCCc2cccs2)s1)c1ccc2c(c1)C(=O)OC2=O,,,,IC50,,,target,Polymerase,Human cytomegalovirus,<25 µM
CCCCN(CCNCCc1ccccc1OC)Cc1ccccc1,,,,MIC,,,culture,,Mycobacterium tuberculosis,50 µM
CCC(/C=C/C1=C(O)c2ccccc2C(=O)C1=O)CC,,BACTEC,,MIC,,H37Rv,culture,,Mycobacterium tuberculosis,32 µg/mL
Cc1ccc(-c2cncc(N3CCN(c4ccc(C)cc4)CC3)n2)cc1,,,,inhibition,10 µM,,target,UL97 kinase,Cytomegalovirus,>15%
CC(C)c1ccc2c(c1)CC[C@H]1[C@](C)(CNCCN[C@H](CO)Cc3ccccc3)CCC[C@]21C,,,,MIC,,,culture,,Mycobacterium tuberculosis,25 µM
CN(C)c1ccc(-c2cncc(N3CCN(c4ccccc4F)CC3)n2)cc1,,,,IC50,,,target,UL97 kinase,Cytomegalovirus,<10 µM
CN(C)c1ccc(/C=C/C(=O)c2ccc(Cl)cc2)cc1,,,,MIC,,H37Rv,culture,,Mycobacterium tuberculosis,>100 µg/mL
CC(C)c1ccc2c(c1)CC[C@H]1[C@](C)(CNCCNCCC(c3ccccc3)c3ccccc3)CCC[C@]21C,,,,MIC,,,culture,,Mycobacterium tuberculosis,12.5 µM
Cc1ccc(N(C)S(=O)(=O)c2ccccc2[N+](=O)[O-])cc1,,BACTEC,,inhibition,12.5 µg/mL,H37Rv,culture,,Mycobacterium tuberculosis,0%
Br.Nc1nnc(N)n1N,,,,MIC,,H37Rv,culture,,Mycobacterium tuberculosis,>100 µg/mL
CCOC(=O)C1=CNc2c(C#N)cnn2C1(C(=O)OCC)c1c[nH]c2ccccc12,,resazurin,,inhibition,6.25 µg/mL,H37Rv,culture,,Mycobacterium tuberculosis,2%
O=C(Nc1nnc(NCC(c2ccccc2)c2ccccc2)s1)c1ccc2c(c1)C(=O)OC2=O,,,,IC50,,,target,Polymerase,Human cytomegalovirus,<25 µM
Fc1ccccc1N1CCN(c2cncc(-c3csc4ccccc34)n2)CC1,,,,IC50,,,target,UL97 kinase,Cytomegalovirus,<100 µM
CCOc1ccc2ccccc2c1C(=O)Nc1nnc(NC2CCN(Cc3ccccc3)CC2)s1,,,,IC50,,,target,Polymerase,Human cytomegalovirus,<25 µM
CCOC(=O)c1ccc(OCCC2CCN(c3ccc(C)nn3)CC2)cc1,,neutral red,KB,EC50,,58750 (ICAM-1 receptor group 43),culture,,Rhinovirus,0.089 µM
Cc1cc(C)cc(-c2cncc(N3CCN(c4ccc(F)cc4F)CC3)n2)c1,,,,IC50,,,target,UL97 kinase,Cytomegalovirus,<100 µM
CCC(=O)c1ccc(N)cc1,,,,MIC,,H37Rv,culture,,Mycobacterium tuberculosis,25 µg/mL
COc1ccc(N2CCN(c3cncc(-c4ccc5ccccc5c4)n3)CC2)cc1OC,,,,IC50,,,target,UL97 kinase,Cytomegalovirus,<1 µM
COc1cc(OC)c2nc3occc3c(OC)c2c1,,BACTEC,,MIC,,H37Rv,culture,,Mycobacterium tuberculosis,≥12.8 µg/mL
CC(=O)Nc1cc(Cl)ccc1C(C)=O,,,,MIC,,H37Rv,culture,,Mycobacterium tuberculosis,>100 µg/mL
CS(=O)(=O)OCCN1C(=O)NC(c2ccccc2)(c2ccccc2)C1=O,,BACTEC,,inhibition,12.5 µg/mL,H37Rv,culture,,Mycobacterium tuberculosis,5%
O=C(Cc1ccccc1)c1ccccc1,,,,MIC,,H37Rv,culture,,Mycobacterium tuberculosis,100 µg/mL
CC(C)=CCN1Cc2cc(Cl)cc3[nH]c(=S)n(c23)C[C@@H]1C,RT-M41L T215Y Y181C,,MT-4,EC95,,,culture,,HIV-1,>3 µM
CN1c2ccccc2C(=O)N2C(=O)CCC21C,,BACTEC,,inhibition,12.5 µg/mL,H37Rv,culture,,Mycobacterium tuberculosis,-9%
O=C(Nc1nnc(NCC(c2ccccc2)c2ccccc2)s1)c1ccc(Br)cc1,,,,IC50,,,target,Polymerase,Human cytomegalovirus,>25 µM
Nc1cc(S(=O)(=O)O)cc(C(=O)O)c1O,,,,MIC,,H37Rv,culture,,Mycobacterium tuberculosis,>100 µg/mL
Cc1cc2nc(CC(=O)c3ccncc3)c(CC(=O)c3ccncc3)nc2cc1C,,BACTEC,,MIC bound,,H37Rv,culture,,Mycobacterium tuberculosis,>12.5 µg/mL
CC(=O)c1c(C)c(N)c(C)c(-c2c(C)c(N)c(C)c(C(C)=O)c2C)c1C,,,,MIC,,H37Rv,culture,,Mycobacterium tuberculosis,>100 µg/mL
FC(F)(F)c1ccc(-c2cncc(N3CCN(c4ccccc4)CC3)n2)cc1,,,,inhibition,1 µM,,target,UL97 kinase,Cytomegalovirus,<50%
O=C(c1ccc(-c2ccccc2)cc1)c1ccc(-c2ccccc2)cc1,,,,MIC,,H37Rv,culture,,Mycobacterium tuberculosis,100 µg/mL
C#CC[C@@H](C(=O)N[C@H](/C=C/C(=O)OCC)C[C@@H]1CCNC1=O)n1cccc(NC(=O)c2cc(C)on2)c1=O,,cytopathic effect / XTT,H1-HELA,inhibition,0.067 µM,Serotype Hanks,culture,,Rhinovirus,90%
O=C1c2ccccc2C(=O)C1(O)O,,,,MIC,,H37Rv,culture,,Mycobacterium tuberculosis,>100 µg/mL
CSc1c(C)n([O-])c2cc(Cl)c(Cl)cc2[n+]1=O,,BACTEC,,MIC bound,,H37Rv,culture,,Mycobacterium tuberculosis,<6.25 µg/mL
O=C(O)CCOc1ccccc1,,,,MIC,,H37Rv,culture,,Mycobacterium tuberculosis,1000 µg/mL
CC(C)c1ccc2c(c1)CC[C@H]1[C@](C)(CNCCN[C@H]3C[C@H]4C[C@@H]([C@@H]3C)C4(C)C)CCC[C@]21C,,,,MIC,,,culture,,Mycobacterium tuberculosis,25 µM
O=C(Nc1nnc(NC2CCN(Cc3ccccc3)CC2)s1)c1ccc(Br)cc1,,,,IC50,,,target,Polymerase,Human cytomegalovirus,>25 µM
O=C(O)c1ccccc1C(=O)c1ccc(-c2ccccc2)cc1,,,,MIC,,H37Rv,culture,,Mycobacterium tuberculosis,25 µg/mL
Cn1cc(NC(=O)Nc2cc(C(=O)Nc3cc(C(=O)Nc4ccc(P(=O)(O)O)c5cc(P(=O)(O)O)ccc45)n(C)c3)n(C)c2)cc1C(=O)Nc1cc(C(=O)Nc2ccc(P(=O)(O)O)c3cc(P(=O)(O)O)ccc23)n(C)c1,,BACTEC,,inhibition,12.5 µg/mL,H37Rv,culture,,Mycobacterium tuberculosis,0%
CC(=O)N[C@H]1[C@H]([C@H](O)[C@H](O)CO)OC(C(=O)O)=C[C@@H]1N=C(N)N,,,MDCK,EC50,,B/HONG KONG/5/72,culture,,Influenza B virus,1 µM
Nc1ccc2cc(S(=O)(=O)O)ccc2c1,,,,MIC,,H37Rv,culture,,Mycobacterium tuberculosis,100 µg/mL
OCCCCCNCCNCC12CC3CC(CC(C3)C1)C2,,,,MIC,,,culture,,Mycobacterium tuberculosis,50 µM
Clc1ccnc2c1ccc1c(Cl)ccnc12,,BACTEC,,inhibition,12.5 µg/mL,H37Rv,culture,,Mycobacterium tuberculosis,-1%
CC(=O)Oc1ccc(C(=O)O)c(O)c1,,,,MIC,,H37Rv,culture,,Mycobacterium tuberculosis,>100 µg/mL
S=C(S)N1CCCCCC1,,resazurin,,inhibition,6.25 µg/mL,H37Rv,culture,,Mycobacterium tuberculosis,100%
NC(=O)c1ccccc1-c1cncc(N2CCN(c3ccncc3)CC2)n1,,,,IC50,,,target,UL97 kinase,Cytomegalovirus,<100 µM
O=C(Nc1nnc(NCCC(c2ccccc2)c2ccccc2)s1)c1ccc(Br)cc1,,,,IC50,,,target,Polymerase,Human cytomegalovirus,>25 µM
Brc1cc2ccccc2c2ccccc12,,,,MIC,,H37Rv,culture,,Mycobacterium tuberculosis,>100 µg/mL
C=CCc1ccc(OC)c(OC)c1,,turbidity,,MIC90,,ATCC 90030,culture,,Candida glabrata,345 µg/mL
O=[N+]([O-])c1ccc(C2=Nn3cnnc3SC2)o1,,BACTEC,,MIC,,H37Rv,culture,,Mycobacterium tuberculosis,≥12.5 µg/mL
CCOc1cc(C)cc(C)c1N(CC)C(=O)CCC(=O)O,,,,MIC,,H37Rv,culture,,Mycobacterium tuberculosis,100 µg/mL
COC(=O)C1C(O)C(C)C(OC(C)=O)C(C)/C=C\C=C(/C)C(=O)Nc2c(C)c(OC(C)=O)c3c(c2O)C(=O)C(C)=C2OCOC(=C23)/C(C)=C/C(C)(O)C(O)C(C)C1O,,,,MIC,,PAS-R,culture,,Mycobacterium tuberculosis,12.5 µg/mL
CCCCC(CC)CN1CN(CC(CC)CCCC)CC(C)(NCCNCCc2ccccc2)C1,,,,MIC,,,culture,,Mycobacterium tuberculosis,6.25 µM
COc1cc(C=CC(=O)c2sc(NNC(C)=O)nc2C)ccc1O,,resazurin,,inhibition,6.25 µg/mL,H37Rv,culture,,Mycobacterium tuberculosis,15%
Fc1ccc(N2CCCCC2)c(NC(=S)c2ccncc2)c1,,kinase activity,,inhibition,10 µM,,host protein,CDC7,,2.5%
N#CCCNc1nnc(NC(=O)c2c(Cl)cccc2Cl)s1,,,,IC50,,,target,Polymerase,Human cytomegalovirus,<25 µM
Cc1ccc2nc(-c3ccc(-n4on4-c4ccc(/C=C/c5ccc(-n6on6-c6ccc(-c7nc8ccc(C)cc8s7)cc6)cc5S(=O)(=O)O)c(S(=O)(=O)O)c4)cc3)sc2c1,,BACTEC,,MIC bound,,H37Rv,culture,,Mycobacterium tuberculosis,>6.25 µg/mL
O=[N+]([O-])c1ccc(O)c(N=Cc2ccccc2O)c1,,,,MIC,,H37Rv,culture,,Mycobacterium tuberculosis,100 µg/mL
CC(C)Cn1c[n+](Cc2ccc([N+](=O)[O-])cc2)c2c1C(=O)c1ccccc1C2=O,,resazurin,,MIC bound,,H37Rv,culture,,Mycobacterium tuberculosis,<6.25 µg/mL
CCNCc1cccc(OC)c1OC.Cl,,,,MIC,,H37Rv,culture,,Mycobacterium tuberculosis,>100 µg/mL
Cn1c(=O)c2c(nc(Nc3ccc(Cl)cc3)n3c(=O)n(-c4ccccc4)c(=O)n23)n(C)c1=O,,BACTEC,,inhibition,12.5 µg/mL,H37Rv,culture,,Mycobacterium tuberculosis,0%
Cc1ccc2c(c1)N(CC(N)=O)CCC2,,,,MIC,,H37Rv,culture,,Mycobacterium tuberculosis,>100 µg/mL
CCC(CO)NCCNCC12CC3CC(CC(C3)C1)C2,,,,MIC,,,culture,,Mycobacterium tuberculosis,9.4 µM
CSc1ccc2nc(N)sc2c1,,,,MIC,,H37Rv,culture,,Mycobacterium tuberculosis,>100 µg/mL
CCOC(=O)c1cc(Cl)cc2c(=O)c3c([nH]c12)C(=O)c1c([nH]c2c(C(=O)OCC)cc(Cl)cc2c1=O)C3=O,,BACTEC,,MIC bound,,H37Rv,culture,,Mycobacterium tuberculosis,>12.5 µg/mL
O=C(Nc1nnc(NCc2cccc3ccccc23)s1)c1ccc(I)cc1,,,,IC50,,,target,Polymerase,Human cytomegalovirus,>25 µM
N[C@@H](C(=O)O)[C@@H](O)[C@H](O)[C@H](O)CO,,,,MIC,,H37Rv,culture,,Mycobacterium tuberculosis,>100 µg/mL

Repeating the first 4 entries:

structure | mutations | method | cell line | endpoint | dose | strain or isolate | test | target | agent | result
NC(=S)N/N=C1/C(=O)N(c2ccc(Cl)cc2)C(=O)C1C(=O)Nc1ccc(Cl)cc1 |  | BACTEC |  | MIC |  | H37Rv | culture |  | Mycobacterium tuberculosis | ≥12.8 µg/mL
C[C@H](NCCNCC(c1ccccc1)c1ccccc1)[C@H](O)c1ccc(O)c(O)c1 |  |  |  | MIC |  |  | culture |  | Mycobacterium tuberculosis | 3.13 µM
Fc1ccc(-c2cncc(N3CCN(c4ccccn4)CC3)n2)cc1 |  |  |  | IC50 |  |  | target | UL97 kinase | Cytomegalovirus | <10 µM
COc1cc(C[C@H](C)[C@H](C)Cc2ccc(O)c(O)c2)ccc1O |  | broth dilution |  | MIC100 |  | CCC 130-2000 | culture |  | Candida albicans | 125 µg/mL

ICn is the concentration giving n% inhibition. A number after MIC or MFC names an inhibition level or a share of isolates. ECn: concentration that inhibits the pathogen or its effect by n%. MIC bound comes from a single tested concentration. An empty or dashed field is not shown. Percent inhibition refers to the dose given; in toxicity tests it is the harm to the cells.